The values that follow come from paper PMC4944999 (PLoS ONE, 2016).

The target of this test is PeB^GF-Lys, double substituted variant (D6G, Y11F) of PeB-Lys (mouse). Description: SPR. Background: In SPR one partner is held on a chip, and binding of the other changes the refractive index at the surface.

Regarding “hemagglutinin (HA) of influenza A/Aichi/2/68 H3N2 X31, on virus particles (natural protein)”, the fold amount of hemagglutinin bound compared to PeB came to 2 fold.
